Data set [1] addresses T1, Clp (Xanthomonas campestris pv. campestris 8004) (UniProt Q4UZF6).
T1 sequence: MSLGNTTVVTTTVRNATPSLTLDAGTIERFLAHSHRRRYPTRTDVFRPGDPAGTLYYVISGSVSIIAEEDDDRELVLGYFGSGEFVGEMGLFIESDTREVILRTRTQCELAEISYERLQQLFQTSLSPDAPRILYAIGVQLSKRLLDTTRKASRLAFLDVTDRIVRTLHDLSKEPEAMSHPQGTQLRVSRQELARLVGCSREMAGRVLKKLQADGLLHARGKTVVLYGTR
Kind of data set: EMSA. The note with it: recombinant protein, residues 1-230, protein details: 6xHis (pQE-30), label: FAM; for binding result: 20-30 nM Clp, two bands, probe letters rebuilt from the primers and the ….

Data set [2] has as its target T1, Clp (Xanthomonas campestris pv. campestris 8004). Briefly: DNase I footprinting. The note with it: recombinant protein, residues 1-230, protein details: 6xHis (pQE-30), label: FAM, probe letters rebuilt from the primers and the genome.

Construct, isoform or probe ends are uncertain for at least one entry.

Regarding “CATGGTGATCTCCCTAGAGAACCGGGCTCGACACCCGAGCGCGGTAAGGCGGGCATCTTGGTCTGTGCGCGCGTCGCGTGGTGTGATCGTCCCCACAGAAAACACCATTGCCGCACCGATCACATCGCGGCTGCGGGAGCGGTCGCTTTCCCGCACACTAGTGCCCCCTGCGCGCTGTCCGCAGGACT (double strand) [P-141/+47]”, the binding result in data set [1] was “binds”.

Take “AGGCGATGACTTCGGGAATCAGGGCGAACGTGGCAACGGCGCCAGCCATCAGTTCGCGCGCAGGCGAGGCGCGCCATTGCGCCAGTTCGGTGCGCAGGAAGGACATGGGGGACACTCCAGGGACAAGAACGACAGTCCTGCGGACAGCGCGCAGGGGGCACTAGTGTGCGGGAAAGCGACCGCTCCCGCAGCCGCGATGTGATCGGTGCGGCAATGGTGTTTTCTGTGGGGACGATCACACCACGCGACGCGCGCACAGACCAAGATGCCCGCCTTACCGCGCTCGGGTGTCGAGCCCGGTTCTCTAGGGAGATCACCATGTCCATATTCAGG (double strand) [Dye-3 footprint fragment]”: the binding result in data set [2] (40 uM Clp, protects -80 to -32) is recorded as “binds”.

“CATGGTGATCTCCCTAGAGAACCGGGCTCGACACCCGAGCGCGGTAAGGCGGGCATCTTGGTCTGTGCGCGCGTCGCGTGGTGTGATCGTCCCCACAGAAAACACCATTGCCGCACCGATCACATCGCGGCTGCGGGA (double strand) [P-91/+47]”: in data set [1], the binding result is listed as “binds”.

With “AGTTCGGTGCGCAGGAAGGACATGGGGGACACTCCAGGGACAAGAACGACAGTCCTGCGGACAGCGCGCAGGGGGCACTAGTGTGCGGGAAAGCGACCGCTCCCGCAGCCGCGATGTGATCGGTGCGGCAATGGTGTTTTCTGTGGGGACGATCACACCACGCGACGCGCGCACAGACCAAGATGCCCGCCTTACCGCGCTCGGGTGTCGAGCCCGGTTCTCTAGGGAGATCACCATGTCCATATTCAGGACCGCAAGCACGCTCGCTTTGGCCACCGCCCTCGCACTGGCCGCCGGGCCGGCCTTCAGCTATTCCATCAACAACAGCAGGCAGATCGTCGACGACAGCGGCAAGGTCGTGCAGCTCAAGGGTGTGAA (double strand) [Dye-2 footprint fragment]”, the binding result in data set [2] (20 uM Clp, protects -53 to -32) is “binds”.

For “CATGGTGATCTCCCTAGAGAACCGGGCTCGACACCCGAGCGCGGTAAGGCGGGCATCTTGGTCTGTGCGCGCGTCGCGTGGTGTGATCGTCCCCACAGAAAACACCATTGCCGCACCGATCACATCGCGGCTGCGGGAGCGGTCGCTTTCCCGCACACTAGTGCCCCCTGCGCGCTGTCCGCAGGACTGTCGTTCTTGTCCCTGGAGTGTCCCCCATGTCCTTCCTGCGCA (double strand) [P-184/+47]”, in data set [1], the binding result is listed as “binds”.

On to “GCAATGGTGTTTTCTGTGGGGACGATCACACCACGCGACGCGCGCACAGACCAAGATGCCCGCCTTACCGCGCTCGGGTGTCGAGCCCGGTTCTCTAGGGAGATCACCATGTCCATATTCAGGACCGCAAGCACGCTCGCTTTGGCCACCGCCCTCGCACTGGCCGCCGGGCCGGCCTTCAGCT (double strand) [P-64/+120]”, for which the Kd (commonly the free concentration of one partner at which half of the binding sites on the other are occupied at equilibrium, for simple one-to-one binding) in data set [1] (probe letters rebuilt from the primers and the genome) was determined as 36.8 nM.
